# Measurements: paper PMC5467316, “Antiviral Activity of Fridericia formosa (Bureau) L. G. Lohmann (Bignoniaceae) Extracts and Constituents” (Journal of Tropical Medicine, 2017)
# Assays:
# [1] = system: human herpes virus 1 (HSV-1); type: cell-based; conditions: selectivity index, CC50 over EC50
# [2] = system: dengue virus type 2 (DENV-2); type: cell-based; conditions: selectivity index, CC50 over EC50
Compound,SI (HSV-1) [1],SI (DENV-2) [2]
"O=c1cc(-c2ccccc2)oc2cc(O)cc(O)c12 [Chrysin (4), 5,7-Dihydroxy-2-phenyl-4H-1-benzopyran-4-one]",>3.4,
"O=c1c2cc(O)c(O)cc2oc2cc(O)c([C@@H]3O[C@H](CO)[C@@H](O)[C@H](O)[C@H]3O)c(O)c12 [Mangiferin (1), 2-β-D-Glucopyranosyl-1,3,6,7-tetrahydroxy-9H-xanthen-9-one]",>1.9,>1.9
